Results of unrelated studies side by side (data: NIAID ChemDB).

All rows: whole-cell or culture tests; species: HIV-1; cells: MT-4; measure: EC50

ECn: concentration that inhibits the pathogen or its effect by n%. An empty or dashed field is not shown. Conditions beyond the fields shown may differ between rows.

| compound | strain | mutations | read by | value |
|---|---|---|---|---|
| CCOC(=O)C(=O)CC(=O)c1ccc(Oc2ccnc(Nc3ccc(C#N)cc3)n2)cc1 | IIIB | L100I | MTT | >22 µM |
| Fc1cccc(F)c1C1SCc2nc3ccc(C(F)(F)F)cc3n21 | IIIB |  | cytopathic effect / MTT | >351 µM |
| Cc1ccnc2c1NC(=O)c1cccnc1N2C1CC1 | IIIB | K103N Y181C NNRTI-resistant | MTT | ≥11 µM |
| CC(=O)O[C@@]12C[C@@H](C)[C@@]3(O)[C@@H](C=C(CO)C[C@]4(O)C(=O)C(C)=C[C@@H]34)[C@@H]1C2(C)C | L1 Clinical isolate |  | cytopathic effect / MTT | 0.04 µg/mL |
| Cc1cc(C#Cc2cccc(N)c2)cc(C)c1Oc1ccnc(NC2CCN(Cc3ccc(S(N)(=O)=O)cc3)CC2)n1 | IIIB | K103N | MTT | 0.023 µM |
| FC(F)(F)c1ccc2nc3n(c2c1)C(c1c(Cl)cccc1Cl)SC3 | IIIB |  | cytopathic effect / MTT | >19.3 µM |
| N#Cc1ccc(Nc2nccc(Oc3cccc(C(=O)CC(=O)C(=O)O)c3)n2)cc1 | RES056 |  | MTT | >9 µM |
| COc1ccc2ccc(O)c(CN3CCN(Cc4c(O)ccc5ccc(OC)cc45)CC3)c2c1 |  |  | MTT | >100 µM |
| CCCCSc1nc(N)cc(Sc2ccccc2)n1 | IIIB |  | cytopathic effect / MTT | 37 µM |
| CCOC(=O)C(=O)CC(=O)c1cccc(Oc2ccnc(Nc3ccc(C#N)cc3)n2)c1 | IIIB | L100I | MTT | >13 µM |
| CCCNc1nc(C(C)c2c(F)cccc2F)c(C)c(=O)[nH]1 | IIIB |  | cytopathic effect / MTT | 0.006 µM |
| CC(C)=CCN1Cc2cc(Cl)cc3[nH]c(=S)n(c23)C[C@@H]1C | HXB2 (RT E138A S162C E169D T200A L214F) Clinical isolate | RT-E138A S162C E169D T200A L214F | cytopathic effect / MTT | 1.399 µM |
| Cc1cc(C#Cc2ccc(C(F)(F)F)cc2)cc(C)c1Oc1ccnc(Nc2ccc(C#N)cc2)n1 | IIIB | K103N | MTT | 1.131 µM |
| c1cc(CN2CCCNCCNCCCNCC2)ccc1CN1CCCNCCNCCCNCC1 | SDF-resistant (subtype B) |  | MTT | 0.008 µg/mL |
| Cc1cc(C#Cc2ccccc2N)cc(C)c1Oc1ccnc(Nc2ccc(C#N)cc2)n1 | IIIB | Y181C | MTT | 1.286 µM |
| Nc1ccn([C@H]2CC[C@@H](CO)O2)c(=O)n1 | IIIB |  | MTT | 0.0774 µg/mL |
| N#Cc1ccc(Nc2nccc(Oc3cc4c(cc3Br)c(=O)c(C(=O)O)cn4C3CCCC3)n2)cc1 | IIIB |  | MTT | 0.51 µM |
| O=C(c1ccccc1)c1ccc2nc3n(c2c1)C(c1c(F)cccc1F)SC3 | IIIB |  | cytopathic effect / MTT | >1.3 µM |
| CCCn1cc(C(=O)O)c(=O)c2cc(I)c(Oc3ccnc(Nc4ccc(C#N)cc4)n3)cc21 | IIIB | K103N Y181C NNRTI-resistant | MTT | 1.67 µM |
| Fc1ccc2nc3n(c2c1)C(c1c(F)cccc1Cl)SC3 | IIIB |  | cytopathic effect / MTT | >28.2 µM |
| O=C(N[C@H]1c2ccccc2OC[C@H]1O)[C@H](Cc1cccnc1)C[C@H](O)CN1CCN(Cc2ccn(-c3cc(Cl)c(Cl)c(Cl)c3)c2)C[C@H]1C(=O)NCC(F)(F)F | K-60C Clinical isolate | PR-L10I M46I I54V Q58E L63P I64V V77I V82F I84V L90M I93L | p24 | <0.031 µM |
| CCC(C)Oc1cc(=O)[nH]c(Sc2ccc(OC)cc2)n1 | IIIB |  | cytopathic effect / MTT | >300 µM |
| CC(=O)c1ccc(C)cc1NC(C(N)=O)c1c(Cl)cccc1Cl | Recombinant mutant | RT-E138A | cytopathic effect / MTT | 0.03 µM |
| CCC(C)Oc1cc(=O)[nH]c(Sc2ccc(Cl)cc2)n1 | IIIB |  | cytopathic effect / MTT | 106 µM |
| Cc1cn([C@H]2C[C@H](F)[C@@H](CO)O2)c(=O)[nH]c1=O | 121-2(PRE-AZT) |  | RT activity | 0.005 µM |
| Cc1cc(C#Cc2ccccc2)cc(C)c1Oc1ccnc(Nc2ccc(C#N)cc2)n1 | IIIB | RES056 | MTT | 8.202 µM |
| CNc1nc(C(C)c2c(F)cccc2F)c(C)c(=O)[nH]1 |  | RT-Y181C | cytopathic effect / MTT | 13 µM |
| CCC(C)Oc1cc(=O)n(C)c(Sc2ccccc2)n1 | IIIB |  | cytopathic effect / MTT | >200 µM |
| CC(=O)Oc1ccc2ccccc2c1Cc1c(-c2ccccc2)[nH]c2ccccc12 |  |  | MTT | >19 µM |
| N#Cc1ccc(Nc2nccc(Oc3cc4c(cc3Br)c(=O)c(C(=O)O)cn4C3CCCCC3)n2)cc1 | IIIB | K103N Y181C NNRTI-resistant | MTT | >3.59 µM |
| O=C(N[C@H]1c2ccccc2OC[C@H]1O)[C@H](Cc1cccnc1)C[C@H](O)CN1CCN(Cc2ccn(-c3ccccc3C(F)(F)F)c2)C[C@H]1C(=O)NCC(F)(F)F | Q-60C Clinical isolate | PR-L10I N37S R41K M46I I54V I62V L63P A71V V77I V82A L90M I93L | p24 | <0.5 µM |
| Cc1cc(C#Cc2cccnc2)cc(C)c1Oc1ccnc(Nc2ccc(C#N)cc2)n1 | IIIB | RES056 | MTT | 0.935 µM |
| Nc1ccn([C@H]2CC[C@@H](CO)O2)c(=O)n1 | Recombinant mutant | RT-E138A | cytopathic effect / MTT | 3.886 µM |
| CC(c1cc(=O)[nH]c(NC2CCCC2)n1)c1c(F)cccc1F |  | RT-Y181C | cytopathic effect / MTT | 0.5 µM |
| Cc1cc(C#Cc2ccccn2)cc(C)c1Oc1ccnc(Nc2ccc(C#N)cc2)n1 | IIIB | Y188L | MTT | >2.068 µM |
| Nc1nc2c(ncn2CC(CO)OCP(=O)(O)O)c(=O)[nH]1 | IIIB |  | cytopathic effect / trypan blue | >125 µM |
| Fc1ccc2c(c1)nc1n2C(c2c(Cl)cccc2Cl)SC1 | IIIB |  | cytopathic effect / MTT | >13.2 µM |
| Nc1nc2c(ncn2CCOCP(=O)(O)O)c(=O)[nH]1 | IIIB |  | cytopathic effect / trypan blue | 3.8 µM |
| Fc1ccc2nc3n(c2c1)C(c1c(F)cccc1F)SC3 | IIIB |  | cytopathic effect / MTT | 14.7 µM |
| CCCCNc1nc(Cc2c(F)cccc2F)c(C)c(=O)[nH]1 | IIIB |  | cytopathic effect / MTT | 0.01 µM |
| Cc1cc(C)cc(Cc2c(CC(C)C)c(C)[nH]c(=O)c2N(C)C)c1 | Recombinant | RT-Y181C | cytopathic effect / MTT | 1.259 µM |
| O=C(N[C@H]1c2ccccc2OC[C@H]1O)[C@H](Cc1cccnc1)C[C@H](O)CN1CCN(Cc2ccn(-c3ccc(F)c(F)c3F)c2)C[C@H]1C(=O)NCC(F)(F)F | K-60C Clinical isolate | PR-L10I M46I I54V Q58E L63P I64V V77I V82F I84V L90M I93L | p24 | <0.015 µM |
| O=c1[nH]cnc2c1ncn2[C@H]1CC[C@@H](CO)O1 | 263)(ddC |  | p24 | 15.8 µM |
| CCc1cc(NCc2nc3c(Cl)ccc(Cl)c3o2)c(=O)[nH]c1C | HXB2 |  | antigen | ~0.06 µM |
| COc1ccc2ccc(OC(C)=O)c(Cc3c(-c4ccccc4)[nH]c4ccccc34)c2c1 |  |  | MTT | >15 µM |
| CC(C)=CCN1Cc2cc(Cl)cc3[nH]c(=S)n(c23)C[C@@H]1C |  | RT-L74V Y181C |  | <3 µM |
| CCC(C)Oc1cc(N)nc(Sc2ccc(C)cc2)n1 | IIIB |  | cytopathic effect / MTT | >300 µM |
| Cc1ccnc2c1NC(=O)c1cccnc1N2C1CC1 | Y181C (subtype B) |  | MTT | 0.9 µg/mL |
| COc1ccc2c(c1)N(C(=O)OC(C)C)[C@@H](CSC)C(=S)N2 | IIIB | RT-E138K | cytopathic effect / MTT | 0.0015 µM |
| CCC(C)Oc1nc(N)cc(Sc2cccc(C)c2)n1 | IIIB |  | cytopathic effect / MTT | >115 µM |
| CCCc1c(C)[nH]c(=O)c(N(C)C)c1Cc1cc(C)cc(C)c1 | Recombinant | RT-Y181C | cytopathic effect / MTT | 100 µM |
| Cc1cc(C#Cc2cccc(N)c2)cc(C)c1Oc1ccnc(NC2CCN(Cc3cccc(C(N)=O)c3)CC2)n1 | IIIB | E138K | MTT | 0.027 µM |
| Cc1ccnc2c1NC(=O)c1cccnc1N2C1CC1 | Recombinant wild type |  | cytopathic effect / MTT | 0.075 µM |
| Fc1cccc(Cl)c1C1SCc2nc3ccc(C(F)(F)F)cc3n21 | IIIB |  | cytopathic effect / MTT | >15 µM |
| Cc1cccc(C)c1Oc1ccnc(Nc2ccc(C#N)cc2)n1 | IIIB | L100I | MTT | 0.054 µM |
| Cc1cccc2nc3n(c12)C(c1c(F)cccc1F)SC3 | IIIB |  | cytopathic effect / MTT | 3 µM |
| Nc1ccn(C[C@@H](CO)OCP(=O)(O)O)c(=O)n1 | IIIB |  | cytopathic effect / trypan blue | >250 µM |
| COc1ccc2ccc(OC(C)=O)c(Cc3c(C)[nH]c4ccccc34)c2c1 |  |  | MTT | 15 µM |
| CC(C)Nc1cccnc1N1CCN(C(=O)c2cc3cc(NS(C)(=O)=O)ccc3[nH]2)CC1 | IIIB | K103N | MTT | 2.444 µM |
| O=C(N[C@H]1c2ccccc2OC[C@H]1O)[C@H](Cc1cccnc1)C[C@H](O)CN1CCN(Cc2ccn(-c3ccccc3F)c2)C[C@H]1C(=O)NCC(F)(F)F | Q-60C Clinical isolate | PR-L10I N37S R41K M46I I54V I62V L63P A71V V77I V82A L90M I93L | p24 | <0.031 µM |
| COc1ccc(S(=O)(=O)O)cc1N=Nc1c(S(=O)(=O)O)cc2cc(Nc3nc(Nc4ccccc4)nc(Nc4cc(C)c(N=Nc5cc(S(=O)(=O)O)cc6cc(S(=O)(=O)O)cc(O)c56)cc4OC)n3)ccc2c1O | NL4-3 |  | cytopathic effect / MTT | 0.7 µg/mL |
| CCCCn1cc(C(=O)O)c(=O)c2cc(I)c(Oc3ccnc(Nc4ccc(C#N)cc4)n3)cc21 | IIIB |  | MTT | 0.0096 µM |
| Cc1ccc(-n2ccc(CN3CCN(C[C@@H](O)C[C@@H](Cc4cccnc4)C(=O)N[C@H]4c5ccccc5OC[C@H]4O)[C@H](C(=O)NCC(F)(F)F)C3)c2)cc1 | K-60C Clinical isolate | PR-L10I M46I I54V Q58E L63P I64V V77I V82F I84V L90M I93L | p24 | <0.015 µM |
| Cc1cn([C@H]2C[C@H](N=[N+]=[N-])[C@@H](CO)O2)c(=O)[nH]c1=O | 126 BCH-189 (RT-M184V) | RT-M184V | p24 | 0.06 µM |
| O=c1[nH]cnc2c1ncn2C[C@@H](CO)OCP(=O)(O)O | IIIB |  | cytopathic effect / trypan blue | >125 µM |

The first 4 rows once more:

compound | strain | mutations | read by | value
CCOC(=O)C(=O)CC(=O)c1ccc(Oc2ccnc(Nc3ccc(C#N)cc3)n2)cc1 | IIIB | L100I | MTT | >22 µM
Fc1cccc(F)c1C1SCc2nc3ccc(C(F)(F)F)cc3n21 | IIIB |  | cytopathic effect / MTT | >351 µM
Cc1ccnc2c1NC(=O)c1cccnc1N2C1CC1 | IIIB | K103N Y181C NNRTI-resistant | MTT | ≥11 µM
CC(=O)O[C@@]12C[C@@H](C)[C@@]3(O)[C@@H](C=C(CO)C[C@]4(O)C(=O)C(C)=C[C@@H]34)[C@@H]1C2(C)C | L1 Clinical isolate |  | cytopathic effect / MTT | 0.04 µg/mL